Compound potency records, mixed from different reports. Data source: NIAID ChemDB in PubChem.

Common to all: growth or infection tests; organism: HIV-1; read by: cytopathic effect / MTT; measure: EC50

ECn: concentration that inhibits the pathogen or its effect by n%. An empty or dashed field is not shown. Lines come from different laboratories, so protocols vary.

compound	mutations	strain or isolate	cells	value
CC(=O)Nc1nc2ccc(S(=O)(=O)N(CC(C)C)C[C@@H](O)[C@H](Cc3ccccc3)NC(=O)OC3COC4OCCC34)cc2[nH]1	-	LAI WT	MT-4	0.2 µM
CCn1cc(C(=O)O)c(=O)c2cc(F)c(N3CCN(CN4C(=O)C(=Nc5ccc(S(=O)(=O)Nc6nc(C)cc(C)n6)cc5)c5cc(F)ccc54)C(C)C3)c(F)c21	-	IIIB	MT-4	14.8 µM
Nc1nc(=O)n([C@@H]2C[C@@H](O)[C@H](CO)O2)cc1F	-	LAI	CEM + CEM-SS	>100 µM
COc1ccc(N2CCN(CN3C(=O)C(=Nc4ccc(S(=O)(=O)Nc5nc(C)cc(C)n5)cc4)c4ccccc43)CC2)cc1	-	IIIB	MT-4	>44.4 µM
CCc1c(Cc2cc(Cl)cc(Cl)c2)n(COCC=C(C)C)c(=O)[nH]c1=O	RT-Y181C	NNRTI-resistant (RT Y181C) N119	MT-4	>10 µM
COC(=O)Nc1nc2ccc(S(=O)(=O)N(CC(C)C)C[C@@H](O)[C@H](Cc3ccccc3)NC(=O)OC3COC4OCCC34)cc2[nH]1	-	LAI WT	MT-4	0.025 µM
Cc1cc(C)cc(Nn2c(-c3ccccc3)c(C)[nH]c2=S)c1	-	NL4-3	MT-4	0.87 µM
Nc1nc(=O)n([C@H]2O[C@@H](CO)[C@H](O)[C@@H]2O)cc1F	-	LAI	CEM + CEM-SS	>100 µM
Cc1ccc(Nn2c(-c3ccccc3)c(C)[nH]c2=S)cc1C	-	IIIB	MT-4	9.3 µM
CCc1c(Cc2cc(Cl)cc(Cl)c2)n(COC2CCc3ccccc32)c(=O)[nH]c1=O	-	IIIB	MT-4	0.05 µM
COC(=O)/C=C1\S/C(=N/N=C/c2cc(OC)c(O)c(OC)c2)NC1=O	-	IIIB	MT-4	>14.5 µM
Cc1[nH]c(=S)n(Nc2cccc(Cl)c2)c1C	-	IIIB	MT-4	>259 µM
CC(C)CN(C[C@@H](O)[C@H](Cc1ccccc1)NC(=O)OCc1cncs1)S(=O)(=O)c1ccc2ncn(CCc3ccccc3)c2c1	-	LAI WT	MT-4	0.1 µM
Cc1[nH]c(=S)n(Nc2cccc([N+](=O)[O-])c2)c1-c1ccccc1	-	IIIB	MT-4	7.29 µM
CC(C)CN(C[C@@H](O)[C@H](Cc1ccccc1)NC(=O)O[C@H]1CO[C@H]2OCC[C@H]21)S(=O)(=O)c1ccc2nc(NC(=O)OCCN(C)C)[nH]c2c1	-	LAI WT	MT-4	0.398 µM
Nc1nc(=O)n([C@@H]2C[C@H](O)[C@H](CO)O2)cc1F	-	IIIB	MT-4	>100 µM
COC(=O)/C=C1\S/C(=N/N=C/c2cccc(OC)c2)NC1=O	-	IIIB	MT-4	>61.3 µM
CC(C)CN(C[C@@H](O)[C@H](Cc1ccccc1)NC(=O)O[C@H]1CCOC1)S(=O)(=O)c1ccc2ncn(CC(C)C)c2c1	-	LAI WT	MT-4	0.02 µM
CCc1[nH]c(=S)n(Nc2cccc(Cl)c2)c1-c1ccccc1	RT-K103N Y181C	SO561945 (RT K103N Y181C)	MT-4	>38.96 µM
CC1(C)S[C@H](C(NC(=O)Cc2ccccc2)C(=O)NCC(=O)O)N[C@H]1C(=O)NCCNC(=O)[C@@H]1N[C@@H](C(NC(=O)Cc2ccccc2)C(=O)NCc2ccccc2)SC1(C)C	-	IIIB	MT-4	>100 µM
Cc1ncn(Nc2cccc(Cl)c2)c1-c1ccccc1	-	NL4-3	MT-4	1.9 µM
Cc1cc(C)nc(NS(=O)(=O)c2ccc(N=C3C(=O)N(CN4CCN(c5ccc([N+](=O)[O-])cc5)CC4)c4ccc(F)cc43)cc2)n1	-	IIIB	MT-4	>44.12 µM
C=C(C)COCn1c(Cc2cc(Cl)cc(Cl)c2)c(CC)c(=O)[nH]c1=O	-	IIIB	MT-4	0.12 µM
Cc1cc(C)nc(NS(=O)(=O)c2ccc(N=C3C(=O)N(CN4CCN(c5ccc([N+](=O)[O-])cc5)CC4)c4ccccc43)cc2)n1	-	IIIB	MT-4	>42.62 µM
CC1(C)S[C@H]([C@H](NC(=O)Cc2ccccn2)C(=O)NCc2ccccc2)N[C@H]1C(=O)NCCNC(=O)[C@@H]1N[C@@H]([C@H](NC(=O)Cc2ccccn2)C(=O)NCc2ccccc2)SC1(C)C	-	IIIB	MT-4	>100 µM
CC(C)CN(C[C@@H](O)[C@H](Cc1ccccc1)NC(=O)O[C@H]1CO[C@H]2OCC[C@H]21)S(=O)(=O)c1ccc2ncn(Cc3cncn3C)c2c1	-	LAI WT	MT-4	0.631 µM
COC(=O)/C=C1\S/C(=N/N=C/c2c(F)cccc2Cl)NC1=O	-	IIIB	MT-4	>52.7 µM
COC1=C(C2=C(Cl)C(=O)c3ccccc3C2=O)C(=O)c2ccc3c(c2C1=O)C=C[C@@](C)(CCC=C(C)C)O3	-	IIIB	CEM	2.3 µM
CC(C)CN(C[C@@H](O)[C@H](Cc1ccccc1)NC(=O)OC1COC2OCCC12)S(=O)(=O)c1ccc2ncn(Cc3ccccc3)c2c1	-	LAI WT	MT-4	0.002 µM
CCOCn1c(Cc2ccccc2)c(C(C)C)c(=O)[nH]c1=O	-	IIIB	MT-4	0.02 µM
CC(C)CN(C[C@@H](O)[C@H](Cc1ccccc1)NC(=O)O[C@H]1CO[C@H]2OCC[C@H]21)S(=O)(=O)c1ccc2ncn(CCc3ccccc3)c2c1	-	LAI WT	MT-4	0.002 µM
CCn1c(C)c(C(=O)OC)c(C(=O)OC)c1Cc1ccccc1	RT-D67N K70R T215Y K219Q	G910-6 (RT D67N K70R T215Y K219Q)	MT-4	6.8 µM
CCc1c(Cc2cc(Cl)cc(Cl)c2)n(COC2Cc3ccccc3C2)c(=O)[nH]c1=O	RT-Y181C	NNRTI-resistant (RT Y181C) N119	MT-4	2.1 µM
CN1C(=O)[C@@H](c2cc(Cl)c(O)c(Cl)c2)NC(=O)[C@@H]2NC(=O)[C@H](c3cc(Cl)c(O)c(Cl)c3)NC(=O)[C@@H](NC(=O)C(=O)c3cc(Cl)c(O)c(Cl)c3)Cc3c[nH]c4cc(ccc34)-c3cc2cc(c3O)Oc2ccc(cc2)C[C@H]1C(=O)N[C@@H](C(=O)O)c1ccc(O)cc1	-	IIIB	MT-4	2.2 µg/mL
Cc1cn([C@H]2C[C@H](N=[N+]=[N-])[C@@H](CO)O2)c(=O)[nH]c1=O	-	IIIB X4	MT-4	0.018 µM
COC(=O)/C=C1\S/C(=N/N=C/C2CCCCC2)NC1=O	-	IIIB	MT-4	>57.53 µM
CC1(C)S[C@H](C(NC(=O)Cc2ccccc2)C(=O)NCCO)N[C@H]1C(=O)NCCNC(=O)[C@@H]1N[C@@H](C(NC(=O)Cc2ccccc2)C(=O)NCc2ccccc2)SC1(C)C	-	IIIB	MT-4	67 µM

For reference, 3 entries again:

compound	mutations	strain or isolate	cells	value
COC1=C(C2=C(Cl)C(=O)c3ccccc3C2=O)C(=O)c2ccc3c(c2C1=O)C=C[C@@](C)(CCC=C(C)C)O3	-	IIIB	CEM	2.3 µM
COC(=O)Nc1nc2ccc(S(=O)(=O)N(CC(C)C)C[C@@H](O)[C@H](Cc3ccccc3)NC(=O)OC3COC4OCCC34)cc2[nH]1	-	LAI WT	MT-4	0.025 µM
COC(=O)/C=C1\S/C(=N/N=C/c2cccc(OC)c2)NC1=O	-	IIIB	MT-4	>61.3 µM